20 molecules from patent US20240043504A1 (published 2024) can be followed below.

Substitutions are numbered along the chain they refer to.

B1: mAb10930 (antibody, V domains shown)
VH: EVQLVESGGGLVQPGRSLRLSCAASGFTFDDYAMYWVRQAPGKGLEWVSGISWNSGSIGYADSVKGRFTISRDNAKNSLYLQMNSLRAADTALYYCAKDKDWNSRGYYYYGMDVWGQGTTVTVSS
VL: not shown
B2: mAb10922 (antibody, V domains shown)
VH: EVQLVESGGGLVQPGGSLRLSCAASGFTFSIYEMNWVRQAPGKGLEWVSYITSSGTTIYYADSVKGRFTISRDNAKNSLYLQMNSLRAEDTAVYYCASSSSSGYYFDYWGQGTLVTVSS
VL: not shown
B3: mAb10938 (antibody, V domains shown)
VH: EVQLVESGGGLVQPGGSLRLSCAVSGFTVSSNYMSWVRQAPGKGLEWVSLIYSGGSTFYADSVKGRFTISRHNSKNTLYLQMNSLRAEDTAVYYCAREGGYSYDYNYWGQGTLVTVSS
VL: DIQMTQSPSSLSASVGDRVTITCQASQDIRNYLNWYQQKPGKAPKLLIYDASNLETGVPSRFSGIGSGTDFTFTISSLQPEDIATYYCQQYDNLPITFGQGTRLEIKR
B4: mAb10935 (antibody, V domains shown)
VH: EVQLVESGGGLVQPGGSLRLSCAASGFTVSSNYMSWVRQAPGKGLEWVSLIYSGGSTYYADSVKGRFTISRHNSKNTLYLQMNSLRSEDTAVYYCARVPLGDYYYGMDVWGQGTTVTVSS
VL: B3 VL with R30N, N31K, I65S, Y91S, I96L, Q100G, R103K, L104V
B5: mAb10930 (antibody, V domains shown)
VH: B1 VH
VL: not shown
B6: mAb10922 (antibody, V domains shown)
VH: B2 VH
VL: not shown
B7: mAb10982 (antibody, V domains shown)
VH: EVQLVESGGGLVQPGGSLRLSCAASGLTVSSNYMSWVRQAPGKGLEWVSVIYSGGTTYYADSVKGRFTISRHNSKNTLSLQMNSLRAEDTAVYYCARGEGANYYGMDVWGQGTTVTVSS
VL: QSVLTQPPSVSGAPGQRVTISCTGSSSNIGTGYDVHWYQQLPGTAPKLLIYGNSNRPSGVPDRFSGSKSGTSASLAITGLQAEDEADYYCQSYDSSLSGYVVFGGGTKLTVLG
B8: mAb10985 (antibody, V domains shown)
VH: EVQLVESGGGLVQPGRSLRLSCAASGFTFDDYAMHWVRQAPGKGLEWVSGISWNRGSIGYADSVKGRFTISRDNAKNSLYLQMSSLRAEDTALYYCAKDGERWDSVVVPSARNGMDVWGQGTTVTVSS
VL: B7 VL with T31A, Y100S, V101Y, G105T, L109V
B9: mAb10971 (antibody, V domains shown)
VH: EVQLVESGGGLIQPGGSLRLSCAASGVTVSSNYMSWVRQAPGKGLEWVSVIYSGGSTFYSDSVKGRFSISRDNSKNTLYLQMNSLRAEDTAVYYCARDLYYYGMDVWGQGTTVTVSS
VL: DIQLTQSPSFLSASVGDRVTITCRASQGISTYLAWYQQKPGKAPKLLIYAASTLQSGVPSRFSGSGSGTEFTLTISSLQPEDFATYYCQQLDSYPGLTFGGGTKVEIKR
B10: mAb10934 (antibody, V domains shown)
VH: not shown
VL: B3 VL with R30W, L33I, E55K, I65S, Y91H, N93D, I96P, R103K, L104V
B11: mAb10938 (antibody, V domains shown)
VH: B3 VH
VL: B3 VL
B12: mAb10954 (antibody, V domains shown)
VH: EVQLVESGGGLVQPGGSLRLSCAASGITVSSNYMSWVRQAPGKGLEWVSLIYSGGSTYYADSVKGRFTISRDNSKNTLYLQMNSLRVEDTAVYYCARDHGMAAAGYNYWGQGTLVTVSS
VL: B3 VL with R30N, N31K, I65S, S76N, I83F, Y87F, I96P, T97A, R103K, L104V
B13: mAb10966 (antibody, V domains shown)
VH: EVQLVESGGGLVQPGGSLRLSCAASGLTVSSNYMSWVRQAPGKGLEWVSVIYSGGSTFYADSVKGRFTISRDNSKNTLYLQMNSLRPEDTAVYYCAREGRIAATGYGMDVWGQGTTVTVSS
VL: B3 VL with R30S, E55G, I65S, G66R, Q89H, I96Q, Q100P, R103K, L104V, E105D
B14: mAb10935 (antibody, V domains shown)
VH: B4 VH
VL: B3 VL with R30N, N31K, I65S, Y91S, I96L, Q100G, R103K, L104V
B15: mAb11006 (antibody, V domains shown)
VH: EVQLVESGGGLVQPGGSLRLSCAASGFIVSRNYMSWVRQAPGKGLEWVSVIYSGGSTFYADSVKGRFTISRHNSKNTLYLQMNSLKAEDTAVYYCARELRGYFDYWGQGTLVTVSS
VL: DIQLTQSPSFLSASVGDRVTITCWASQGISSYLAWYQQKPGKAPKLLIYAASTLQSGVPSRFSGSGSGTEFTLTISSLQPEDFATYYCQLLNSYPYTFGQGTKLEIKR
B16: mAb11008 (antibody, V domains shown)
VH: EVQLVESGGGLVQPGGSLRLSCAASGFTVSSNYMTWVRQAPGKGLEWVSVIYSGGSTFYADSVKGRFTISRHNSENTLYLQMNSLRAEDTAVYYCARDLAAAGTDYWGQGALVTVSS
VL: B15 VL with E81D, L90H, P95L
B17: mAb10939 (antibody, V domains shown)
VH: EVQLVESGGGLVQPGGSLRLSCAASGLTVSSNYMNWVRQVPGKGLEWVSVIYSGGSKFYVDSVKGRFTISRHNSKNTLYLQMNSLRPEDTAVYYCTRDAQYYGMDVWGQGTTVTVSS
VL: DIQMTQSPSSLSASVGDRVTITCRASQSISTYLHWYQQKPGEAPKLLIYAASSLQSGVPSRFSGSGSGTDFTLTISSLQPEDFATYYCQQSYSTPPEIFGQGTKLEIKR
B18: mAb10998 (antibody, V domains shown)
VH: EVQLVESGGGLVHPGGSLRLSCAASGLTVSSNYMSWVRQAPGKGLEWVSVIYSGGSTYYADSVKGRFTISRHNSKNTLFLQMNSLRAEDTAVYYCARDRPITGTTLDVWGQGTTVTVSS
VL: B17 VL with S12F, T31S, H34N, E42K, T85F, S91T, E97I, I98T, K104R
B19: mAb10984 (antibody, V domains shown)
VH: EVQLVESGGGLVQPGGSLRLSCAASGLTVNRNYMSWVRQAPGKGLEWVSLIYSGGSTYYADSVKGRFTISRDNSKNTLYLQMNSLRLEDTAVYYCARGELGIPYGMDVWGQGTTVTVSS
VL: QSVLTQPPSVSAAPGQKVTISCSGSSSNIGNNYVSWYQQLPGTAPKLLIYDNNKRPSGIPDRFSGSKSGTSATLGITGLQTGDEADYYCGTWDSSLSAGVFGGGTKLTVLG
B20: mAb11004 (antibody, V domains shown)
VH: QVQLVESGGGVVQPGRSLRLSCVASGFTFSIYGMDWVRQAPGKGLEWVAVISYDGSNKYYADSVKGRFTISRDNSKNTLYLQMNSLRPEDTAVYYCAKDREAAADAFDIWGQGTMVTVSS
VL: DIQMTQSPSSVSASVGDRVTITCRASQGISSWLAWYQQKPGKAPKLLIYAASSLHSGVPSRFSGSGSGTDFTLTISSLQPEDFATYYCQQANSFRLTFGGGTKVEIKR

The target of one test is SARS-COV-2 RBD extracellular domain expressed with a C-terminal myc-myc-hexahistidine tag (SARS-COV-2 RBD-MMH) (SARS-CoV-2). The experiment in a line: SPR.
For orientation: Kd means a measure of binding affinity in units of concentration. A lower Kd goes with a tighter complex. As a reminder, the koff is the first-order rate constant of dissociation. Low values mean a long-lived complex, high ones a short-lived complex. Usually kon stands for the second-order rate constant of association. For B1, the “90 nM Ag Bound (RU)” value came to 59.6 RU, the Kd worked out at 27 nM, the koff came to 0.00334 s⁻¹ and the kon worked out at 124000 M⁻¹ s⁻¹. Besides, the “t1/2” value worked out at 3.5 min.

In the case of B2, the “90 nM Ag Bound (RU)” value is 120 RU, the dissociation constant Kd amounted to 2.41 nM and the “t1/2” value was 7.8 min.

As to B3, the “90 nM Ag Bound (RU)” value worked out at 61.5 RU, the Kd amounted to 2.41 nM and the “t1/2” value was found to be 66 min.

In the case of B4, the “90 nM Ag Bound (RU)” value was 108 RU, the Kd came out at 10.7 nM and the “t1/2” value is 2.8 min.

For another test, the target named is SARS-COV-2 RBD-MMH (SARS-CoV-2 RBD extracellular domain with a C-terminal myc-myc-hexahistidine tag) (SARS-CoV-2). The experiment in a line: SPR Biacore 25C, mAb captured. (Surface plasmon resonance follows binding to a sensor surface in real time, without labels.)
For the molecule B5, the “50 nM Ag Bound (RU)” value is 328 RU; the affinity, expressed as Kd, was 20.8 nM; the off-rate constant (koff) is 0.00185 s⁻¹; the kon was 89000 M⁻¹ s⁻¹. The same molecule gave a t1/2 of 6.2 min.

With B6, the “50 nM Ag Bound (RU)” value was 786 RU; the affinity, expressed as Kd, was 5.11 nM; the t1/2 came out at 5.8 min.

On to B7, for which the “50 nM Ag Bound (RU)” value turned out to be 188 RU, the equilibrium dissociation constant (Kd) turned out to be 20.6 nM and the t1/2 amounted to 4.3 min.

On to B8, for which the “50 nM Ag Bound (RU)” value amounted to 749 RU, binding was characterised by a dissociation constant (Kd) of 1.54 nM and the t1/2 amounted to 8 min.

B9: the “50 nM Ag Bound (RU)” value came out at 358 RU, binding was characterised by a dissociation constant (Kd) of 2.67 nM and the t1/2 stood at 25.8 min.

In turn, B10 gave a Kd of 4.32 nM and a t1/2 of 2.7 min.

Consider B11, for which the “50 nM Ag Bound (RU)” value worked out at 180 RU, the dissociation constant Kd was 5.28 nM and the t1/2 came out at 33.2 min.

On to B12, for which the dissociation constant (Kd) was 1.73 nM and the t1/2 worked out at 28.5 min.

For B13, the “50 nM Ag Bound (RU)” value stood at 343 RU, binding was put at a Kd of 2.81 nM and the t1/2 turned out to be 26.3 min.

With B14, the “50 nM Ag Bound (RU)” value was 694 RU, the equilibrium dissociation constant (Kd) came to 18.9 nM and the t1/2 stood at 2.9 min.

In the case of B15, the “50 nM Ag Bound (RU)” value turned out to be 49 RU, the dissociation constant Kd was found to be 4.1 nM and the t1/2 stood at 31.5 min.

Take B16: the “50 nM Ag Bound (RU)” value stood at 56 RU, binding was characterised by a dissociation constant (Kd) of 59.4 nM and the t1/2 came to 2.9 min.

Turning to B17, the “50 nM Ag Bound (RU)” value is 241 RU, the Kd amounted to 20 nM and the t1/2 came to 3.4 min.

For B18, the “50 nM Ag Bound (RU)” value is 69 RU, binding was put at a Kd of 117 nM and the t1/2 came to 0.5 min.

For the molecule B19, the “50 nM Ag Bound (RU)” value was found to be 387 RU, the dissociation constant (Kd) came to 2.39 nM and the t1/2 was 31.2 min.

With B20, the “50 nM Ag Bound (RU)” value amounted to 161 RU and binding was characterised by a dissociation constant (Kd) of 16.6 nM.
